Results deposited as PubChem BioAssay AID624099 (ICCB-Longwood, 2012)

Screen: 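Host factors E2 relies on to silence an HPV18 LCR reporter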 (primary screen)
System: human C33A cervical carcinoma cells (HPV-negative) stably expressing BPV1 E2 and an HPV18 LCR luciferase reporter
Knock-down reagent: siRNA pool against human genes, 40 nM
Time to read-out: 72 h
Detection: 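HPV18 LCR reporter light per well, converted to plate-wise z-scores that exclude control wells, and averaged over triplicate plates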
Direction: mean z-score and z-score: higher = stronger reporter signal, weaker E2 silencing
Call rule: 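Hit if mean z-score reaches 2 and two or more of three replicate z-scores also reach 2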
The whole screen tested about 21,000 reagents; this is a part drawn at random. In the full data, 497 (2.4%) were called active. 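Higher z means weaker E2 silencing; only reporter increases were scored, and knock-downs that hurt cell survival may mask genuine repressor factors.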 The numbers tell different reagents against one gene apart.

Target gene	pool no.	mean z-score	z-score, replicate A	z-score, replicate B	z-score, replicate C	Outcome
USP9Y (ubiquitin specific peptidase 9 Y-linked)	1	0.14	0.05	0.23	0.15	inactive
FLVCR1 (FLVCR choline and heme transporter 1)	1	-0.99	-0.75	-1.17	-1.03	inactive
SLC5A2	1	1	0.91	1.15	0.95	inactive
BGLAP (bone gamma-carboxyglutamate protein)	1	-0.32	-0.04	-0.62	-0.29	inactive
INF2 (inverted formin 2)	1	-0.18	-0.23	0.08	-0.38	inactive
INF2 (inverted formin 2)	2	0.46	0.7	0.27	0.4	inactive
IFNA4 (interferon alpha 4)	1	-0.15	-0.33	-0.12	0	inactive
LOC401034 (retired record)	1	-0.02	0.09	-0.31	0.16	inactive
TDRP (testis development related protein)	1	-0.07	-0.51	0.38	-0.07	inactive
TXLNGY (taxilin gamma Y-linked (pseudogene))	1	0.5	0.52	0.5	0.49	inactive
TXLNGY (taxilin gamma Y-linked (pseudogene))	2	0.03	-0.04	-0.22	0.36	inactive
EBPL (EBP like)	1	0.17	0.61	0.02	-0.12	inactive
FAM9C (family with sequence similarity 9 member C)	1	-1.8	-1.76	-1.81	-1.82	inactive
ERRFI1 (ERBB receptor feedback inhibitor 1)	1	-0.39	-0.41	-0.3	-0.46	inactive
EPB41 (erythrocyte membrane protein band 4.1)	1	1.25	1.26	1.3	1.2	inactive
MAN2B2 (mannosidase alpha class 2B member 2)	1	1.61	1.91	2.48	0.44	inactive
GTF2F1 (general transcription factor IIF subunit 1)	1	-0.2	0	-0.44	-0.18	inactive
MOGS (mannosyl-oligosaccharide glucosidase)	1	0.85	0.84	0.8	0.9	inactive
PGBDF (plakoglobin binding and degradation factor)	1	0.19	0.58	0.05	-0.07	inactive
STK25 (serine/threonine kinase 25)	1	-0.21	-0.59	0.28	-0.32	inactive
NDST3 (N-deacetylase and N-sulfotransferase 3)	1	-0.15	-0.06	-0.03	-0.36	inactive
CHORDC1 (cysteine and histidine rich domain containing 1)	1	-0.61	-0.67	-0.59	-0.58	inactive
LRTOMT	1	-0.46	-0.38	-0.59	-0.39	inactive
LOC400940	1	-0.11	-0.02	-0.15	-0.17	inactive
ABHD17AP1 (ABHD17A pseudogene 1)	1	0.58	0.84	0.62	0.28	inactive
MTMR12 (myotubularin related protein 12)	1	-0.76	-0.92	-0.82	-0.56	inactive
ZNF599 (zinc finger protein 599)	1	0.19	0.54	0.36	-0.34	inactive
LRP5L (LDL receptor related protein 5 like (pseudogene))	1	-0.08	-0.04	-0.48	0.29	inactive
CCT6A (chaperonin containing TCP1 subunit 6A)	1	0.57	0.71	0.4	0.6	inactive
PTH2 (parathyroid hormone 2)	1	0.3	0.37	0.35	0.17	inactive
PLA2G2C (phospholipase A2 group IIC)	1	-2.9	-2.8	-3.19	-2.71	inactive
SGMS1 (sphingomyelin synthase 1)	1	0.3	0.51	0.37	0.03	inactive
IPO11 (importin 11)	1	2.19	2.55	2.13	1.88	active
BBIP1 (BBSome interacting protein 1)	1	1.6	1.63	1.91	1.26	inactive
ZBTB45 (zinc finger and BTB domain containing 45)	1	0.35	0.62	0.01	0.41	inactive
TUBB7P (tubulin beta 7 pseudogene)	1	-1.6	-1.71	-1.56	-1.52	inactive
LY86-AS1 (LY86 antisense RNA 1)	1	-1.27	-1.51	-0.9	-1.39	inactive
OAT (ornithine aminotransferase)	1	-1.35	-1.24	-1.31	-1.49	inactive
SYBU (syntabulin)	1	0	0.02	0.05	-0.06	inactive
CDHR3 (cadherin related family member 3)	1	0.6	0.77	0.69	0.36	inactive
POLR1H (RNA polymerase I subunit H)	1	0.33	0.53	0.29	0.16	inactive
HLA-DRB3 (major histocompatibility complex, class II, DR beta 3)	1	2.92	3.14	2.68	2.92	active
CDKN3 (cyclin dependent kinase inhibitor 3)	1	-1.55	-1.33	-1.71	-1.6	inactive
NEU2 (neuraminidase 2)	1	-0.57	-0.61	-0.59	-0.52	inactive
LINC00243 (long independently transcribed non-coding RNA 243)	1	0.06	0.67	-0.29	-0.19	inactive
HEBP2 (heme binding protein 2)	1	-0.24	-0.33	-0.5	0.1	inactive
LOC130063 (retired record)	1	-0.04	0.01	-0.03	-0.11	inactive
CCL25 (C-C motif chemokine ligand 25)	1	-0.13	-0.11	-0.03	-0.26	inactive
QPCTL (glutaminyl-peptide cyclotransferase like)	1	-1.11	-1.11	-1.07	-1.14	inactive
TYRO3 (TYRO3 protein tyrosine kinase)	1	1.64	1.76	1.51	1.66	inactive
TATDN2 (TatD DNase domain containing 2)	1	0.37	0.29	0.42	0.41	inactive
EIF4A3 (eukaryotic translation initiation factor 4A3)	1	0.12	0.22	0.24	-0.11	inactive
FOXA3 (forkhead box A3)	1	1.71	2.03	1.66	1.44	inactive
SIGLEC11 (sialic acid binding Ig like lectin 11)	1	-1.31	-1.32	-1.15	-1.46	inactive
ZRANB1 (zinc finger RANBP2-type containing 1)	1	-0.28	-0.67	-0.37	0.2	inactive
MYL12B (myosin light chain 12B)	1	-0.34	-0.44	-0.46	-0.13	inactive
KLF16 (KLF transcription factor 16)	1	-0.98	-1.12	-0.79	-1.03	inactive

Records listed so far whose gene name starts with N or n (2):
Target gene	pool no.	mean z-score	z-score, replicate A	z-score, replicate B	z-score, replicate C	Outcome
NDST3 (N-deacetylase and N-sulfotransferase 3)	1	-0.15	-0.06	-0.03	-0.36	inactive
NEU2 (neuraminidase 2)	1	-0.57	-0.61	-0.59	-0.52	inactive
